Tests used:
[1] = Salt screen of cytisine with acid salt formers
[2] = Stability of cytisine succinate salt in standard formulations / excipient compatibility; conditions: preliminary analysis
[3] = with lactose, 9 days at 40° C. and 75% RH

## cytisine hydrogen succinate
[1]; API stock solution 2-MeTHF
  Assessment: Equivalent succinate to CH3CN
[1]; API stock solution CH3CN
  Assessment: Excellent salt profile, mono succinate,
[2]
  stability of formulations versus formulations comprising cytisine free base: significantly more stable
[3]
  rate of degradation of cytisine versus free base form: degraded at a substantially lower rate

From patent publication US10300050B2, “Succinate salt of cytisine and use thereof” (dated 2019)
